# Data: US20030039697A1, “Matrices containing nitric oxide donors and reducing agents and their use” (priority 2002, published 2003)
# Some compounds may have been tested in ways that are not shown here.
# What was measured:
# E. coli [1] = assay: Bacterial growth on agar containing SNP, count at 24 hours; details: 24 hours culture
# Experimental: (§1) Bacterial growth on agar: 4 grams TSA was dissolved in distilled water, and autoclaved at 121° C. for 15 minutes. When the agar cooled to 50° C., 15 ml agar was placed into each tube, and equal amounts of bacteria were added to each. Then the agar and bacteria mixture was cast on culture dishes. The dishes were placed into an incubator @ 37° C. The clone number was counted at 24 hours.
# (§2) Nitric oxide release from SNP inhibits bacterial growth on agar. Agar containing different concentrations of SNP was used to test the effects of NO release from SNP on bacteria growth. Both S. aureus and E. coli were tested. After 24 hours culture, bacteria number were counted. No bacteria were found in the dishes containing 5% and 10% SNP. Bacterial numbers in dishes of control and 1% SNP were counted. […] The results also support the use of matrices that are less hydrophobic than silicone.
# S. aureus = assay: as above; details: 24 hours culture
# Experimental: as §1, §2
# E. coli [2] = details: silicone coating with NO donor and 1% AA as reducing agent; TSB, 37° C., 12-hour period
substance,measurement,setting,value
Sodium nitroprusside,E. coli growth on agar,E. coli [1]; 1% SNP in agar,"inhibits both strains of bacteria, significantly"
same,E. coli growth on agar,E. coli [1]; 5% SNP in agar,kill S. aureus and E. coli completely
same,E. coli growth on agar,E. coli [1]; 10% SNP in agar,kill S. aureus and E. coli completely
same,S. aureus growth on agar,S. aureus; 1% SNP in agar,"inhibits both strains of bacteria, significantly"
same,S. aureus growth on agar,S. aureus; 5% SNP in agar,kill S. aureus and E. coli completely
same,S. aureus growth on agar,S. aureus; 10% SNP in agar,kill S. aureus and E. coli completely
same,growth of bacteria (E. coli) with coated catheter segments,E. coli [2],inhibits growth of bacteria
